Anti-infective test results gathered from many reports (values: NIAID ChemDB through PubChem).

All rows: toxicity to cultured cells; cells: HEL; read-out: CC50

CCn is the concentration with n% toxicity to the cells. Conditions beyond the fields shown may differ between rows.

compound | value
Cc1ccc(C)c(C(Br)S(=O)(=O)c2cccc[n+]2[O-])c1 | 16 µg/mL
CCCCCCCCCCc1cc2cnc(OC(CC)CC)nc2o1 | 127 µM
CCCCc1ccc(CNCc2c(O)cc3c(c2O)-c2cc(ccc2O)[C@H]2NC(=O)[C@@H]4NC(=O)[C@H]5NC(=O)[C@@H](Cc6ccc(c(Cl)c6)Oc6cc4cc(c6O)Oc4ccc(cc4Cl)[C@@H](O)[C@H](NC2=O)C(=O)N[C@@H]3C(=O)O)NC(=O)[C@H](N)c2ccc(O)c(c2)Oc2cc(O)cc5c2)cc1 | >50 µM
CCCCCCC#Cc1cc2cn(COCCO)c(=O)nc2o1 | >50 µM
O=c1[nH]c(=O)n([C@H]2C[C@H](O)[C@@H](CO)O2)cc1/C=C/Br | >600 µM
Nc1ncnc2c1ncn2[C@@H]1O[C@H](C(O)O)[C@@H](O)[C@@H]1O | >50 µg/mL
CC(C)[C@H](NC(=O)n1nnc2ccccc21)C(=O)NC1CCCC1 | >200 µg/mL
O=c1[nH]c(=O)n(C2C[C@H](CO)[C@@H](CO)C2)cc1I | >200 µg/mL
Cc1cc(Br)cn2c(CSCc3ccccc3)cnc12 | >50 µg/mL
C=CCCCCCCCCc1cc2cn([C@H]3C[C@H](O)[C@@H](CO)O3)c(=O)nc2o1 | >200 µM
Cc1cc(-c2ccccc2O)cn2c(CSCCc3ccccc3)cnc12 | >50 µg/mL
CCCCCc1cc2cn([C@H]3C[C@H](O)[C@@H](CO)O3)c(=O)nc2o1 | >50 µM
Cc1cn([C@@H]2OC3COC(=O)C3(OS(C)(=O)=O)C2O)c(=O)[nH]c1=O | 36 µM
C=CC1=C[C@@H](n2cnc3c(N)ncnc32)[C@H](O)[C@@H]1O | 100 µg/mL
Nc1nc2c(ncn2COCCO)c(=O)[nH]1 | 87 µg/mL
C=CCCCCc1cc2cn([C@H]3C[C@H](O)[C@@H](CO)O3)c(=O)nc2o1 | >200 µM
O=S(=O)(Cc1cccc(Br)c1)c1cccc[n+]1[O-] | 7.4 µg/mL
OCCOCc1c(-c2ccccc2)nc2ccccn12 | 135 µg/mL
Cc1ccc(CS(=O)(=O)c2cccc[n+]2[O-])cc1 | 24 µg/mL
CC(=O)OCCOCN1c2ccccc2C(=O)N(Cc2ccccc2)S1(=O)=O | 100 µg/mL
O=C(O)c1ccc(CS(=O)(=O)c2cccc[n+]2[O-])cc1 | >100 µg/mL
Cc1ccn2c(CSCc3ccc(Cl)cc3)cnc2c1 | 19 µg/mL
COc1cc(CS(=O)c2cccc[n+]2[O-])cc(OC)c1OC | 40 µg/mL
Nc1ncnc2c1ncn2C[C@H]1COP(=O)(O)CO1 | 40 µg/mL
Nc1ncnc2c1ncn2[C@@H]1O[C@H](C=O)[C@@H](O)[C@H]1O | >50 µg/mL
C#Cc1cn(COCCO)c(=O)[nH]c1=O | >200 µM
Cc1cc(-c2ccc(O)cc2)cn2c(CSCCc3ccccc3)cnc12 | >50 µg/mL
CCc1ccc(CS(=O)(=O)c2cccc[n+]2[O-])cc1 | 16 µg/mL
O=C(NC1CCCCC1)[C@H](Cc1ccccc1)NC(=O)n1nnc2ccccc21 | 33.6 µg/mL
CCCCC#Cc1cc2cn(COCCO)c(=O)nc2o1 | >50 µM
CCCCOCCCCCCCCCc1cc2cn([C@H]3C[C@H](O)[C@@H](CO)O3)c(=O)nc2o1 | >200 µM
O=c1[nH]c(=O)n([C@H]2C[C@H](O)[C@@H](CO)O2)cc1-c1cc(-c2ccccc2)no1 | >200 µg/mL
O=c1[nH]c(=O)n([C@H]2C[C@H](O)[C@@H](CO)O2)cc1-c1ccc(Br)s1 | 321 µM
Nc1nc2c(ncn2COC2COP(=O)(O)OC2)c(=O)[nH]1 | 2 µg/mL
Cc1ccc[n+]([O-])c1S(=O)(=O)Cc1c(Cl)cccc1Cl | 70 µg/mL
C=CCCCCCCc1cc2cn([C@H]3C[C@H](O)[C@@H](CO)O3)c(=O)nc2o1 | >200 µM
CCCCCCCc1cc2cnc(OC3CCCC3)nc2o1 | 132 µM
O=c1nc2occc2cn1COCCO | >200 µM
Nc1ccn(C[C@@H](CO)OCP(=O)(O)O)c(=O)n1 | 100 µg/mL
CC(C)c1ccc(C(C)C)c(CS(=O)(=O)c2cccc[n+]2[O-])c1 | 6.4 µg/mL
CCCCc1cc2cnc(OC3CCCC3)nc2o1 | 108 µM
COC(=O)[C@H]1NC(=O)[C@H]2NC(=O)[C@H](NC(=O)[C@@H]3NC(=O)[C@H]4NC(=O)[C@H](NC(=O)[C@H](N)c5ccc(O)c(c5)Oc5cc4cc(O)c5C)[C@H](O)c4ccc(cc4)Oc4cc3cc(c4O)Oc3ccc(cc3)[C@H]2O[C@@H]2C[C@@H](N)[C@@H](O)[C@H](C)O2)c2ccc(O)c(c2)-c2c(O)cc(O)cc21 | >50 µM
CCCCCCCCc1cc2cn(COCCO)c(=O)nc2[nH]1 | 65 µM
O=c1nc2oc(CCCC3OCCCO3)cc2cn1[C@H]1C[C@H](O)[C@@H](CO)O1 | >200 µM
Nc1ncnc2c1ncn2[C@@H]1O[C@H](CO)[C@@H](O)[C@@H]1O | 6 µg/mL
CCCCCCc1cc2cn([C@H]3C[C@H](O)[C@@H](CO)O3)c(=O)nc2o1 | >200 µM
CCCCCCCc1cc2cn([C@H]3C[C@H](O)[C@@H](CO)O3)c(=O)nc2o1 | >50 µM
Cc1ccc(C)c(C(C#N)Sc2cccc[n+]2[O-])c1 | 2 µg/mL
Cc1ccn2c(CSCc3ccccc3)c(C)nc2c1 | >50 µg/mL
Clc1ccc(CSc2ccccn2)cc1 | 3.5 µg/mL
CC(C)C[C@H](NC(=O)n1nnc2ccccc21)C(=O)NC1CCCC1 | 87.3 µg/mL
Nc1ncnc2c1ncn2[C@H]1C[C@H](O)[C@@H](C=O)O1 | >50 µg/mL
CN(Cc1ccc(-c2ccccc2)cc1)Cc1c(O)cc2c(c1O)-c1cc(ccc1O)[C@H]1NC(=O)[C@@H]3NC(=O)[C@H]4NC(=O)[C@@H](Cc5ccc(c(Cl)c5)Oc5cc3cc(c5O)Oc3ccc(cc3Cl)[C@@H](O)[C@H](NC1=O)C(=O)N[C@@H]2C(=O)O)NC(=O)[C@H](N)c1ccc(O)c(c1)Oc1cc(O)cc4c1 | >50 µM
Nc1ncnc2c1ncn2[C@@H]1C[C@H](CO)[C@@H](O)[C@@H]1O | 23 µM
CC(c1ccc(S(C)(=O)=O)cc1)S(=O)c1cccc[n+]1[O-] | 0.45 µg/mL
C=CCCCc1cc2cn([C@H]3C[C@H](O)[C@@H](CO)O3)c(=O)nc2o1 | >200 µM
COc1ccc(OC)c(CS(=O)(=O)c2cccc[n+]2[O-])c1 | 60 µg/mL
O=C(C1CC1)N(O)c1ccc(Cl)cc1 | 37 µg/mL
CC(C)C[C@H](NC(=O)n1nnc2ccccc21)C(=O)NC1CCCCC1 | 76 µg/mL
COC(=O)[C@H](C)NP(=O)(OC[C@H]1O[C@@H](n2cc(/C=C/Br)c(=O)[nH]c2=O)C[C@@H]1O)Oc1ccc(Cl)cc1 | 74 µM
CC(C)Nc1ncnc2c1ncn2C1C[C@H](CO)[C@@H](CO)C1 | >200 µg/mL
O=C(NC1CCCC1)[C@H](Cc1ccccc1)NC(=O)n1nnc2ccccc21 | 15.5 µg/mL
CCCCc1cc2cn(COCCO)c(=O)nc2[nH]1 | >200 µM
Cc1ccc(C)c(CS(=O)(=O)c2ccc(Cl)c[n+]2[O-])c1 | 4.9 µg/mL
CCCCCCCCc1cc2cn(COCCO)c(=O)nc2o1 | >200 µM
CC(=O)OCCOCN1C(=O)c2ccccc2NS1(=O)=O | >200 µg/mL
CCCCCCCCCc1cc2cn([C@H]3C[C@H](O)[C@@H](CO)O3)c(=O)nc2o1 | >200 µM
COC(=O)/C1=C/CC[C@](C)(O)[C@@H]2CC[C@@](C)(O2)C2C(=O)C(=C(C)[C@H]2O)CC1 | >50 µg/mL
CCCCCCCOCCc1cc2cn([C@H]3C[C@H](O)[C@@H](CO)O3)c(=O)nc2o1 | >200 µM
CC(C)(C)[Si](C)(C)OC[C@H]1O[C@@H](n2ccc3nc(CN)cn3c2=O)[C@H](O[Si](C)(C)C(C)(C)C)[C@@H]1O[Si](C)(C)C(C)(C)C | 9.6 µM
C#C[C@H](O)C1=C[C@@H](n2cnc3c(N)ncnc32)[C@H](O)[C@@H]1O | >50 µg/mL
Nc1ncnc2c1ncn2[C@@H]1O[C@H](C=NO)[C@@H](O)[C@H]1O | 0.7 µg/mL
CCCCCCCCCCCc1cc2cn([C@H]3C[C@H](O)[C@@H](CO)O3)c(=O)nc2o1 | >200 µM
CCOC(Cn1c(N)nc2c(ncn2COCCO)c1=O)OCC | >90 µg/mL
Nc1ncnc2c1ncn2[C@@H]1O[C@H](C=O)C[C@H]1O | >50 µg/mL
Cc1cn2c(=O)c3ncn(COC(CO)CO)c3nc2[nH]1 | >90 µg/mL
COc1ccc[n+]([O-])c1SCc1cc(C)ccc1C | 2 µg/mL
C[C@H]1O[C@@H](c2n[nH]c(C(N)=O)c2O)[C@H](O)[C@@H]1O | >50 µg/mL
Cc1cn(C2OC(CO)C(O)C2(F)F)c(=O)[nH]c1=O | 100 µM
COC(=O)C(c1cccc(Oc2ccccc2)c1)S(=O)(=O)c1cccc[n+]1[O-] | 9.6 µg/mL
CCCCCCCc1cc2cn(COCCO)c(=O)nc2[nH]1 | 119 µM
O=c1[nH]c(=O)n([C@H]2C[C@H](O)[C@@H](CO)O2)cc1/C=C/Br | >200 µM
Cc1ccn2c(CSCc3ccccc3)c(-c3ccccc3)nc2c1 | >50 µg/mL
Nc1nc2c(ncn2COC(CO)CO)c(=O)[nH]1 | 394 µM
Cc1ccccc1CS(=O)(=O)c1c(C)ccc[n+]1[O-] | 17 µg/mL
Cc1cc(-c2cccc(F)c2)c2ncc(CSCCc3ccccc3)n2c1 | 35 µg/mL
O=c1c2ncn(COCCO)c2[nH]c2nccn12 | >90 µg/mL
O=C1c2ccccc2N(COCCO)S(=O)(=O)N1Cc1ccccc1 | 125 µg/mL
Cc1cn2c(=O)c3ncn(COCCO)c3nc2[nH]1 | >90 µg/mL
Oc1cccnc1SCc1ccccc1 | 35 µg/mL
CCCCCCCCCc1cc2cn([C@H]3C[C@H](O)[C@@H](CO)O3)c(=O)nc2o1 | >200 µM
CCCCCCCCCCc1cc2cn(Cc3ccc(C)cc3)c(=O)nc2o1 | >200 µM
O=c1[nH]c(=O)n([C@@H]2O[C@H](CO)[C@@H](O)[C@@H]2O)cc1/C=C/Br | 1000 µM
CSCC1=C[C@@H](n2cnc3c(N)ncnc32)[C@H](O)[C@@H]1O | 9 µg/mL
CCCCCCCCCCc1cc2cnc(OCCC)nc2o1 | 126 µM
O=S(Cc1ccc(F)cc1)c1cccc[n+]1[O-] | 87 µg/mL
O=c1nc2oc(CCOC3CCCCO3)cc2cn1[C@H]1C[C@H](O)[C@@H](CO)O1 | >40 µM
CC[C@@H](O)C1=C[C@@H](n2cnc3c(N)ncnc32)[C@H](O)[C@@H]1O | >50 µg/mL
CCCCCCc1cc2cn([C@H]3CC[C@@H](CO)O3)c(=O)nc2o1 | 143 µM
Nc1ncnc2c1ncn2C[C@@H](CO)OCP(=O)(O)O | 20 µg/mL
O=c1ccn([C@@H]2C[C@H](CO)C[C@H]2CO)c(=O)[nH]1 | >200 µg/mL
Cc1ccc(C)c(CSc2c(Cl)ccc[n+]2[O-])c1 | 42 µg/mL
Cc1cc(-c2cccc(O)c2)c2ncc(CSCCc3ccccc3)n2c1 | 11.4 µg/mL

A second listing of 7 rows from above:

compound,value
CC(C)Nc1ncnc2c1ncn2C1C[C@H](CO)[C@@H](CO)C1,>200 µg/mL
O=c1nc2oc(CCCC3OCCCO3)cc2cn1[C@H]1C[C@H](O)[C@@H](CO)O1,>200 µM
Cc1ccc(C)c(C(Br)S(=O)(=O)c2cccc[n+]2[O-])c1,16 µg/mL
CC(C)[C@H](NC(=O)n1nnc2ccccc21)C(=O)NC1CCCC1,>200 µg/mL
Cc1cc(-c2cccc(O)c2)c2ncc(CSCCc3ccccc3)n2c1,11.4 µg/mL
O=c1[nH]c(=O)n([C@H]2C[C@H](O)[C@@H](CO)O2)cc1-c1cc(-c2ccccc2)no1,>200 µg/mL
O=c1nc2oc(CCOC3CCCCO3)cc2cn1[C@H]1C[C@H](O)[C@@H](CO)O1,>40 µM